Results of unrelated studies side by side (data: NIAID ChemDB).

All rows: growth or infection tests; agent: HIV-1; measure: inhibition

Inhibition is in % at the dose shown (toxicity tests: loss of growth or viability). Blank or dashed fields: not listed here. Neighbouring rows are from separate reports.

SMILES	setting	strain	read by	mutations	dose	cells	result
OCC(S)CS	-	IIIB-C-3	RT activity	-	5 µg/mL	CEM	92%
Nc1cccc(CN2C(=O)N(Cc3cccc(N)c3)[C@H](Cc3ccccc3)[C@H](O)[C@@H](O)[C@H]2Cc2ccccc2)c1	-	RF	-	-	0.125 µM	MT-2	90%
CCCCCCCCCC(=O)O[C@@]12[C@H](OCOC)[C@@H](C)[C@@]3(O)[C@@H](C=C(CO)C[C@]4(O)C(=O)C(C)=C[C@@H]34)[C@@H]1C2(C)C	-	IIIB	cytopathic effect / MTT	-	0.1 µg/mL	MT-4 + mouse plasma + MT-4	100%
Nc1ncnc2c1ncn2[C@H]1CC[C@@H](CO)O1	-	LAV	p24	-	10 µM	CEM	90%
CCCCCCCCCCCCCCCCO[C@H](CCl)COP(=O)(O)OCC[N+](C)(C)C	-	IIIB	RT activity	-	10 µM	H9	74%
Cc1cn([C@H]2C=C[C@@H](CO)O2)c(=O)n(N)c1=O	-	BRU	cytopathic effect / MTT	-	1 µM	CEM-C113 + CEM/C113	40%
Cc1cc(SC2=C(O)CC(CCc3ccc(O)cc3)(C(C)C)OC2=O)c(C(C)(C)C)cc1CO	-	IIIB	cytopathic effect / MTT	-	1 µM	CEM	90%
c1cc(CN2CCCNCCNCCCNCC2)ccc1CN1CCCNCCNCCCNCC1	-	SW20 CLADE C R5X4	p24	-	0.1 µM	PBMC	0%
CC(C)(C)OC(=O)N[C@@H](Cc1ccccc1)[C@@H](O)[C@@H](NCc1ccc(CNC(=O)Nc2ccccc2)cc1)C(=O)N[C@H]1c2ccccc2C[C@H]1O	-	IIIB	cytopathic effect / MTT	-	3 µM	MT-4	0%
Cc1cn([C@H]2C[C@H](N=[N+]=[N-])[C@@H](CO)O2)c(=O)[nH]c1=O	-	IIIB	p24 / ELISA	-	0.003 µg/mL	MT-4	90%
CCCCC[C@H](O)/C=C/[C@H]1C=CC(=O)[C@@H]1CCCCCCC(=O)O	-	IIIB	syncytia	-	20 µM	C8166	98%
COc1ccc(CN[C@@H](C(=O)N[C@H]2c3ccccc3C[C@H]2O)[C@H](O)[C@H](Cc2ccccc2)NC(=O)[C@@H](NC(=O)OCc2ccccc2)C(C)(C)C)cc1	-	IIIB	p24	-	0.21 µM	U-937	90%
CSc1nc(N)nc2c1ncn2[C@H]1C[C@H](N=[N+]=[N-])[C@@H](CO)O1	-	IIIB	cytopathic effect	-	200 µM	MT-4	8%
CC(C)(O)c1cccc(CN2C(=O)N(Cc3cccc(C(C)(C)O)c3)[C@H](Cc3ccccc3)[C@H](O)[C@@H](O)[C@H]2Cc2ccccc2)c1	-	HXB2	p24	-	0.0222 µM	MT-2/MT-4 + MT-2	90%
Cc1cc(SC2=C(O)CC(CCc3ccc(N)cc3)(C(C)C)OC2=O)c(C(C)(C)C)cc1CO	-	IIIB	cytopathic effect / MTT	-	1 µM	CEM	90%
CCOC(=O)c1c(C(C)C)c(C#N)c(=N)n2ccccc12	-	-	cytopathic effect	-	4 µM	MT-2	90%
Cc1cn([C@H]2C[C@H](N=[N+]=[N-])[C@@H](CO)O2)c(=O)[nH]c1=O	-	EVK	p24	-	10 µM	MT-4	96.36%
Nc1ncnc2c1ncn2[C@H]1CC[C@@H](CO)O1	-	LAV-1	virus yield	-	0.1 µM	CEM	0%
Nc1nc(NC2CC2)c2ncn([C@H]3C=C[C@@H](CO)C3)c2n1	-	M184V	p24	RT-M184V	4 µM	PBMC	63%
[N-]=[N+]=N[C@H]1C[C@H](n2cnc3c(=S)nc(N)[nH]c32)O[C@@H]1CO	-	IIIB	cytopathic effect	-	32 µM	MT-4	20%
CC(C)(C)NC(=O)[C@@H]1CN(Cc2cnc3occc3c2)CCN1C[C@@H](O)C[C@@H](Cc1ccccc1)C(=O)N[C@H]1c2ccccc2C[C@H]1O	-	-	p24	-	0.025 µM	MT-4	95%
Nc1nc2c(ncn2[C@H]2CC[C@@H](CO)O2)c(=O)[nH]1	-	IIIB	syncytia	-	10 µM	MT-2	98%
CC(C)C1=C[C@H](c2ccccc2)CC[C@H]1O	-	IIIB	p24	-	0.1 µM	Jurkat cells	63.3%
CCC[C@@H](c1ccc(C(F)(F)F)cc1)N1CCN(C2(C)CCN(C(=O)c3c(C)ncnc3C)CC2)C[C@@H]1C	-	JV1083 Clinical isolates	-	-	0.00027 µM	PBMC	90%
NC(=O)c1ccn2c1CS[C@@H]2c1cccnc1	-	DAS	-	-	100 µM	Monocytes/macrophages	80%
CC(C)CN(C[C@@H](O)[C@H](Cc1ccccc1)NC(=O)[C@@H](NC(=O)CNCc1cccc(F)c1)C(C)(C)C)S(=O)(=O)c1cccc(N)c1	-	Clinical isolate E	virus yield	-	0.011 µM	MT-2	90%
C1CNCCNCCCN[C@H]([C@@H]2CNCCCNCCNCCCN2)CNC1	-	RF	cytopathic effect / MTT	-	0.87 µM	MT-4	90%
Cc1cn([C@H]2C[C@H](N=[N+]=[N-])[C@@H](COC(=O)OCCCCCCOC3O[C@H](CO)[C@@H](O)[C@H](O)[C@@H]3O)O2)c(=O)[nH]c1=O	-	-	RT activity	-	20 µg/mL	CEM-113 + CEM/C113	0%
CCNc1cccnc1N1CCN(C(=O)c2cc3cc(OC)ccc3[nH]2)CC1	-	Seropositive clinical isolate B	MTT	-	1 µM	PBMC	47%
CN(C[C@@H](CCN1CCC2(CC1)CS(=O)c1ccccc12)c1cccc(Cl)c1)S(=O)(=O)c1ccccc1	-	YU-2 (M-tropic)	p24	-	12.5 µM	PBMC	95%
CC(C)CCCCCCCCCCCN(C)OP(=O)(O)N(CC(N)=O)P(=O)(O)OC1C(OC[C@H]2O[C@@H](n3ccc(=O)[nH]c3=O)[C@H](O)[C@@H]2O)=C(CO)C(O)C1O	-	IIIB	p24	-	0.8 µM	PBMC	80%
Cc1ccnc2c1NC(=O)c1cccnc1N2C1CC1	-	A17	cytopathic effect / MTT	RT-K103N Y181C	100 µM	MT-4	25%
OCCN1CCN(CC/C=C2/c3ccccc3Sc3ccc(C(F)(F)F)cc32)CC1	-	IIIB	RT activity	-	2 µg/mL	MOLT-3	57%
O=C(O)/C=C/c1ccc[c]([Sb](=[O])([OH])[OH])c1	-	NL4-3 X4	β-galactosidase	-	20 µM	MAGI	71.4%
Nc1nc(Br)nc2c1ncn2[C@H]1CC[C@@H](CO)O1	-	LAV	p24	-	10 µM	CEM	90%
NC(=O)c1ncn([C@@H]2O[C@H](CO)[C@@H](O)[C@H]2O)c1N	16 h	IIIB	RT activity	-	250 µM	CEM + CEM-SS	25%
CCCCN1C[C@H](O)[C@@H](O)[C@H](O)[C@H]1CO	-	-	RT activity	-	200 µM	H9	90%
COC(=O)[C@H]1[C@@H]2C[C@@H](O[C@@H]3O[C@H](C)[C@@H](O)[C@H](N)[C@@H]3O)/C=C/C=C/C=C/C=C/C=C/C=C/C=C/[C@H](C)[C@@H](O)[C@H](C)[C@H](C)OC(=O)C[C@H](O)C[C@H](O)[C@@H](O)CC[C@H](O)C[C@H](O)C[C@](O)(C[C@@H]1O)O2	-	IIIB	antigen	-	5 µg/mL	H9	90%
CCCCCCCCCC(=O)O[C@@]12[C@H](OC(C)=O)[C@@H](C)[C@@]3(O)[C@@H](C=C(CO)C[C@]4(O)C(=O)C(C)=C[C@@H]34)[C@@H]1C2(C)C	-	IIIB	cytopathic effect / MTT	-	0.1 µg/mL	MT-4	100%
COc1ccc(OC[C@@H]2CNCC[C@H]2c2ccc(F)cc2)cc1	-	IIIB	p24	-	4 µg/mL	MOLT-3	7%
COc1ccc(CN[C@@H](C(=O)N[C@H]2c3ccccc3C[C@H]2O)[C@H](O)[C@H](Cc2ccccc2)NC(=O)[C@@H](NC(=O)OC(C)(C)C)C(C)(C)C)cc1	-	IIIB	cytopathic effect / MTT	-	3 µM	MT-4	0%
Cc1cn([C@H]2C[C@H](N=[N+]=[N-])[C@@H](COC(=O)C3=CN(C)C=CC3)O2)c(=O)[nH]c1=O	-	CD 451	p24 / ELISA	-	1 µM	PBL(PHA STIM.) + PBL	100%
COc1c(C(=O)NCc2ccc(C)cc2)ccc2nc(Cc3ccc([N+](=O)[O-])cc3)n(C)c(=O)c12	-	-	MTT	-	10 µM	TZM-bl	>0%
C[n+]1cnc(N)c2[nH]cnc21	-	IIIB	p24	-	426 µM	MOLT4 + MOLT-4	>25%
O=C(O)c1nn(Cc2ccc(Cl)cc2Cl)c2ccccc12	-	-	RT activity	-	100 µM	C8166	76%
O=c1[nH]c(=O)n(COCCO)cc1Cc1ccccc1	-	IIIB	cytopathic effect	-	100 µM	MT-4	16%
Nc1cccc(CN2C(=O)N(Cc3cccc(N)c3)[C@H](Cc3ccccc3)[C@H](O)[C@@H](O)[C@H]2Cc2ccccc2)c1	-	Thai (PR L10F M46I D60E I84V)	virus yield	PR-L10F M46I D60E I84V	7.78 µM	MT-2	90%
COc1ccc(OC[C@@H]2CNCC[C@H]2c2ccccc2)cc1	-	IIIB	syncytia	-	4 µg/mL	MOLT-3	5%
O=C1CN=C(c2ccc[nH]2)c2cc(Cl)ccc2N1	-	-	-	-	1 µM	HeLa (TAT) + HeLa	46%
c1ncc2[nH]cnc2n1	-	IIIB	p24	-	44 µM	MOLT4 + MOLT-4	>25%
CC(C)[C@H](NC(=O)N(C)Cc1ccccn1)C(=O)N[C@@H](Cc1ccccc1)[C@H](O)[C@H](O)[C@H](Cc1ccccc1)NC(=O)[C@@H](NC(=O)N(C)Cc1ccccn1)C(C)C	-	LAI	p24	-	0.5 µM	H9	90%
COc1ccc(CN[C@@H](C(=O)N[C@H]2c3ccccc3C[C@H]2O)[C@H](O)[C@H](Cc2ccccc2)NC(=O)[C@H](CC(=O)O)NC(=O)OCc2ccccc2)cc1	-	IIIB	cytopathic effect / MTT	-	3 µM	MT-4	0%
Fc1ccc([C@H]2CCNC[C@@H]2COc2ccc3c(c2)OCCO3)cc1	-	IIIB	p24	-	4 µg/mL	MOLT-3	30%
CC(C)(C)NC(=O)[C@@H]1C[C@@H]2CCCC[C@@H]2CN1C[C@@H](O)[C@H](Cc1ccccc1)NC(=O)[C@H](CC(N)=O)NC(=O)c1ccc2ccccc2n1	-	HXB2	p24	PR-G48V	0.02 µM	MT-2	90%
Nc1ncn([C@H]2C[C@H](O)[C@@H](CO)O2)c(=O)n1	-	I-232	antigen	-	1 µM	CEM	95%
COc1c(C(=O)NCc2ccc(C)cc2)ccc2c1C(=O)N(C)C(Cc1ccc([N+](=O)[O-])cc1)N2	-	-	MTT	-	10 µM	TZM-bl	0%
COc1c(O)c(Cl)c2c(c1OC)-c1c(c(Cl)c(O)c(OC)c1OC)C[C@H](C)[C@H](C)C2	-	A17	cytopathic effect / MTT	RT-K103N Y181C	20 µM	MT-4	20%
CCCC(=O)O[C@H]1CN2CC[C@H](O)[C@@H]2[C@@H](O)[C@@H]1O	-	H9/HXB2	p24 / ELISA / cell fusion	-	1 µg/mL	JM	39%
CCCCCN1CC[C@@H](c2ccc(F)cc2)[C@H](COc2ccc3c(c2)OCCO3)C1	-	IIIB	syncytia	-	4 µg/mL	MOLT-3	22%
Nc1ncnc2c1ncn2[C@H]1CC[C@@H](CO)O1	5 d	IIIB	RT activity	-	0.08 µM	CEM + CEM-SS	50%
COc1cc(OC)c2c(O)c3c(=O)cc(C)oc3c(-c3c(OC)cc4cc5oc(C)cc(=O)c5c(O)c4c3OC)c2c1	-	SF162	luciferase	-	10 µM	TZM-bl	42.72%
CC(C)CN(C[C@@H](O)[C@H](Cc1ccccc1)NC(=O)[C@@H](NC(=O)CNCc1cccc(F)c1)C(C)(C)C)S(=O)(=O)c1ccc(N)cc1	-	THAI 9466	virus yield	-	0.011 µM	MT-2	90%
NC(=O)NO	-	NL4-3	p24	-	100 µM	PBMC	55%
Nc1ncnc2c1ncn2[C@@H]1O[C@H](COP(=O)(O)OP(=O)(O)OP(=O)(O)O)[C@@H](O)[C@H]1O	-	IIIB	p24	-	1826 µM	MOLT4 + MOLT-4	>25%
CCCC(=O)O[C@H]1CN2CC[C@H](O)[C@@H]2[C@@H](O)[C@@H]1O	-	U455	-	-	40 µM	H9	99%
Cc1ccc(CNC(=O)c2ccc3nc(-c4ccco4)n(C)c(=O)c3c2O)cc1	-	-	MTT	-	10 µM	TZM-bl	>0%
Cc1cn([C@H]2C[C@H](N=[N+]=[N-])[C@@H](CO)O2)c(=O)[nH]c1=O	-	BaL	p24	-	0.5 µM	Macrophages (GM-CSF) + Macrophage	>99%
COc1cc(OC)c2c(O)c3c(=O)cc(C)oc3c(-c3c(OC)cc4cc(O)c5c(=O)cc(C)oc5c4c3OC)c2c1	-	SF162	luciferase	-	10 µM	TZM-bl	16.25%
C[C@H]1O[C@@H](O[C@H]2[C@@H](O)C[C@H](O[C@H]3[C@@H](O)C[C@H](O[C@H]4CC[C@@]5(C)[C@H](CC[C@@H]6[C@@H]5C[C@@H](O)[C@]5(C)[C@@H](C7=CC(=O)OC7)CC[C@]65O)C4)O[C@@H]3C)O[C@@H]2C)C[C@H](O)[C@@H]1O	-	LAI	-	-	0.1 µM	HeLa	90%
COc1ccc(OC[C@@H]2CN(C)CC[C@H]2c2ccccc2)cc1	-	IIIB	syncytia	-	20 µg/mL	MOLT-3	50%

Repeating the first 6 entries:

SMILES	setting	strain	read by	mutations	dose	cells	result
OCC(S)CS	-	IIIB-C-3	RT activity	-	5 µg/mL	CEM	92%
Nc1cccc(CN2C(=O)N(Cc3cccc(N)c3)[C@H](Cc3ccccc3)[C@H](O)[C@@H](O)[C@H]2Cc2ccccc2)c1	-	RF	-	-	0.125 µM	MT-2	90%
CCCCCCCCCC(=O)O[C@@]12[C@H](OCOC)[C@@H](C)[C@@]3(O)[C@@H](C=C(CO)C[C@]4(O)C(=O)C(C)=C[C@@H]34)[C@@H]1C2(C)C	-	IIIB	cytopathic effect / MTT	-	0.1 µg/mL	MT-4 + mouse plasma + MT-4	100%
Nc1ncnc2c1ncn2[C@H]1CC[C@@H](CO)O1	-	LAV	p24	-	10 µM	CEM	90%
CCCCCCCCCCCCCCCCO[C@H](CCl)COP(=O)(O)OCC[N+](C)(C)C	-	IIIB	RT activity	-	10 µM	H9	74%
Cc1cn([C@H]2C=C[C@@H](CO)O2)c(=O)n(N)c1=O	-	BRU	cytopathic effect / MTT	-	1 µM	CEM-C113 + CEM/C113	40%